Anti-infective test results gathered from many reports (values: NIAID ChemDB through PubChem).

Common to all: tests on isolated targets

Percent inhibition refers to the dose given; in toxicity tests it is the harm to the cells.

{"compound": "COc1cc(Cc2sc3nc(N)nc(N)c3c2C)cc(OC)c1OC", "endpoint": "IC50", "strain or isolate": "TYPE 1", "target": "Dihydrofolate reductase", "agent": "Cryptosporidium parvum", "result": "2.3 µM"}
{"compound": "N#Cc1ccc(-c2cncc(N3CCN(c4ccncc4)CC3)n2)cc1", "endpoint": "IC50", "target": "UL97 kinase", "agent": "Cytomegalovirus", "result": "<10 µM"}
{"compound": "O=C(O)CCN1C(=O)C(=Cc2ccc(-c3cccc(Cl)c3)o2)SC1=S", "endpoint": "IC50", "target": "NS5 polymerase", "agent": "Bovine viral diarrhea virus", "result": "≤1 µM"}
{"compound": "Nc1nc(N)c2nc(CC3CCCCC3)c(CC3CCCCC3)nc2n1", "endpoint": "IC50", "strain or isolate": "TYPE 1", "target": "Dihydrofolate reductase", "agent": "Cryptosporidium parvum", "result": ">10 µM"}
{"compound": "O=C(Nc1nnc(NCCCNC2CCCCC2)s1)c1ccc(F)cc1F", "endpoint": "IC50", "target": "Polymerase", "agent": "Human cytomegalovirus", "result": "<25 µM"}
{"compound": "Cc1ccnc(C=C2SC(=S)N(c3ccc(C(=O)O)cc3)C2=O)c1", "endpoint": "IC50", "target": "NS5 polymerase", "agent": "Bovine viral diarrhea virus", "result": "≤1 µM"}
{"compound": "O=C(Nc1nnc(NCc2ccco2)s1)c1cc2ccccc2s1", "endpoint": "IC50", "target": "Polymerase", "agent": "Human cytomegalovirus", "result": ">25 µM"}
{"compound": "Fc1ccc(N2CCN(c3cncc(-c4ccc(C(F)(F)F)cc4)n3)CC2)c(F)c1", "tested at": "1 µM", "endpoint": "inhibition", "target": "UL97 kinase", "agent": "Cytomegalovirus", "result": "<50%"}
{"compound": "CN(Cc1ccc2nc(N)nc(N)c2n1)c1cccc(Cl)c1", "endpoint": "IC50", "strain or isolate": "TYPE 2", "target": "Dihydrofolate reductase", "agent": "Cryptosporidium parvum", "result": "0.024 µM"}
{"compound": "CC(C)c1cc(C(C)C)c(C(=O)Nc2nnc(NCCCNC3CCCCC3)s2)c(C(C)C)c1", "tested at": "25 µM", "endpoint": "inhibition", "target": "Polymerase", "agent": "Human cytomegalovirus", "result": "49.5%"}
{"compound": "CCOc1ccc(-c2cncc(N3CCN(c4ccccc4F)CC3)n2)cc1", "tested at": "10 µM", "endpoint": "inhibition", "target": "UL97 kinase", "agent": "Cytomegalovirus", "result": ">15%"}
{"compound": "CCCc1cccc(-c2nc3nc(N)nc(N)c3nc2-c2cccc(CCC)c2)c1", "endpoint": "IC50", "strain or isolate": "TYPE 2", "target": "Dihydrofolate reductase", "agent": "Cryptosporidium parvum", "result": ">10 µM"}
{"compound": "OCC1CCCN1c1nccnc1-c1cc2ccccc2o1", "tested at": "1 µM", "endpoint": "inhibition", "target": "UL97 kinase", "agent": "Cytomegalovirus", "result": "<50%"}
{"compound": "CC(=O)c1ccc(-c2ccc(C=C3SC(=S)N(c4ccc(C(=O)O)cc4)C3=O)o2)cc1", "endpoint": "IC50", "target": "NS5 polymerase", "agent": "Bovine viral diarrhea virus", "result": "≤1 µM"}
{"compound": "CC1(C)C2CC[C@@H](CNc3nnc(NC(=O)c4ccc(C#N)cc4)s3)C1C2", "endpoint": "IC50", "target": "Polymerase", "agent": "Human cytomegalovirus", "result": ">25 µM"}
{"compound": "COc1cc(N(C)Cc2cccc3nc(N)nc(N)c23)cc(OC)c1OC", "endpoint": "IC50", "strain or isolate": "TYPE 1", "target": "Dihydrofolate reductase", "agent": "Cryptosporidium parvum", "result": ">10 µM"}
{"compound": "Clc1ccc(N2CCN(c3cncc(-c4csc5ccccc45)n3)CC2)cc1", "endpoint": "IC50", "target": "UL97 kinase", "agent": "Cytomegalovirus", "result": "<10 µM"}
{"compound": "COc1cc(N(C)Cc2ccc3nc(N)nc(N)c3n2)cc(OC)c1OC", "endpoint": "IC50", "strain or isolate": "TYPE 2", "target": "Dihydrofolate reductase", "agent": "Cryptosporidium parvum", "result": "0.075 µM"}
{"compound": "Cc1ccnc(-c2ccc(C=C3SC(=S)N(c4ccc(C(=O)O)cc4)C3=O)o2)c1", "endpoint": "IC50", "target": "NS5 polymerase", "agent": "Bovine viral diarrhea virus", "result": "≤1 µM"}
{"compound": "CCCCCCCC/C=C/CCCCCCCC(=O)Nc1nnc(NC[C@@H]2CCC3CC2C3(C)C)s1", "endpoint": "IC50", "target": "Polymerase", "agent": "Human cytomegalovirus", "result": "<25 µM"}
{"compound": "COc1cc(NCc2cnc3nc(N)nc(N)c3n2)cc(OC)c1OC", "endpoint": "IC50", "strain or isolate": "TYPE 2", "target": "Dihydrofolate reductase", "agent": "Cryptosporidium parvum", "result": "1.3 µM"}

ICn is the concentration giving n% inhibition. Rows are shuffled and stem from different studies.